Source: PMC7329128
Numbering of substitutions follows the chain as printed. Numbers in names are those of the source.

B1: myc-tagged human PDGFRα (wild type) on Expi293F cells, P16234-1 L137K (protein)
chain: QLSLPSILPNENEKVVQLNSSFSLRCFGESEVSWQYPMSEEESSDVEIRNEENNSGLFVTVLEVSSASAAHTGLYTCYYNHTQTEENELEGRHIYIYVPDPDVAFVPLGMTDYKVIVEDDDSAIIPCRTTDPETPVTLHNSEGVVPASYDSRQGFNGTFTVGPYICEATVKGKKFQTIPFNVYALKATSELDLEMEALKTVYKSGETIVVTCAVFNNEVVDLQWTYPGEVKGKGITMLEEIKVPSIKLVYTLTVPEATVKDSGDYECAARQATREVKEMKKVTISVHEKGFIEIKPTFSQLEAVNLHEVKHFVVEVRAYPPPRISWLKNNLTLIENLTEITTDVEKIQEIRYRSKLKLIRAKEEDSGHYTIVAQNEDAVKSYTFELLTQVPSSILDLVDDHHGSTGGQTVRCTAEGTPLPDIEWMICKDIKKCNNETSWTILANNVSNIITEIHSRDRSTVEGRVTFAKVEETIAVRCLAKNLLGAENRELKLVAPTLRSELTVAAAVLVLLVIVIISLIVLVVIWKQKPRYEIRWRVIESISPDGHEYIYVDPMQLPYDSRWEFPRDGLVLGRVLGSGAFGKVVEGTAYGLSRSQPVMKVAVKMLKPTARSSEKQALMSELKIMTHLGPHLNIVNLLGACTKSGPIYIITEYCFYGDLVNYLHKNRDSFLSHHPEKPKKELDIFGLNPADESTRSYVILSFENNGDYMDMKQADTTQYVPMLERKEVSKYSDIQRSLYDRPASYKKKSMLDSEVKNLLSDDNSEGLTLLDLLSFTYQVARGMEFLASKNCVHRDLAARNVLLAQGKIVKICDFGLARDIMHDSNYVSKGSTFLPVKWMAPESIFDNLYTTLSDVWSYGILLWEIFSLGGTPYPGMMVDSTFYNKIKSGYRMAKPDHATSEVYEIMVKCWNSEPEKRPSFYHLSEIVENLLPGQYKKSYEKIHLDFLKSDHPAVARMRVDSDNAYIGVTYKNEEDKLKDWEGGLDEQRLSADSGYIIPLPDIDPVPEEEDLGKRNRHSSQTSEESAIETGSSSSTFIKREDETIEDIDMMDDIGIDSSDLVEDSFL
B2: myc-tagged human PDGFRα (wild type) on Expi293F cells, P16234-1 L137Q (protein)
chain: B1 chain with K114Q
B3: myc-tagged human PDGFRα (wild type) on Expi293F cells, P16234-1 V242T (protein)
chain: B1 chain with K114L, V219T
B4: myc-tagged human PDGFRα (wild type) on Expi293F cells, P16234-1 Y206S (protein)
chain: B1 chain with K114L, Y183S
B5: myc-tagged human PDGFRα (wild type) on Expi293F cells, P16234-1 V242K (protein)
chain: B1 chain with K114L, V219K

Target: soluble HCMV glycoprotein trimer gH/gL/gO-sfGFP, strain Merlin
Assay: flow cytometry on cells
Settings: chain shown with the change, Merlin gH/gL/gO-sfGFP containing medium (1/3 dilution), read off a plot
[1] = absence of PDGFs, parent: est. 1.0
[2] = presence of PDGFs (100 nM PDGF), parent: est. 0.23

Row | Binder | ratio to parent [1] | ratio to parent [2]
1 | B1 | 0.85 | 0.9
2 | B2 | 0.94 | 0.65
3 | B3 | 0.8 | 0.74
4 | B4 | 0.86 | 0.83
5 | B5 | 0.94 | 0.94
